## Primary screen of a compound library

From ChEMBL document CHEMBL3988442, “University of Dundee, Small-Polar-MMV Screening Library” (2021).

Mtb cholesterol medium: 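Whole-cell growth test on Mycobacterium tuberculosis, read after 4 days in a medium based on cholesterol and the lipid DPPC; the read-out is not stated. Tested at 500 µM. Higher reads as more growth inhibition (inferred: compounds with an IC50 in retests scored well above the rest). Of about 18,000 compounds tested this way, about 900 (5%) reached 50% or more in at least one test.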
Mtb glucose medium: 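Growth of Mycobacterium tuberculosis over 3 days (7H9 medium with glucose and tyloxapol); the read-out is not stated. Concentration: 500 µM. Higher reads as more growth inhibition (inferred: compounds with an IC50 in retests scored well above the rest). Size under these conditions: about 18,000 compounds, about 1,400 of them at 50% or above in at least one test.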

Results are given as percent effect.
How 0% and 100% were set is not recorded. Most values in the screen are low, and negative values occur.
This is part of a subset picked to be rich in strong results.
A dash means the value is not listed here; it may have been measured.

Compound,Mtb cholesterol medium,Mtb glucose medium
Nc1nnc(SCc2ccccc2F)s1,54.84%,61.69%
COc1ccc(Br)cc1CNCC1CCS(=O)(=O)C1 (stereo unspecified),2.366%,-
CC(C#N)CNC(=O)Cc1ccccc1O (stereo unspecified),-3.71%,-
NC(CCO)C1CCCCC1 (stereo unspecified),-,-6.444%
OCC1CN(c2ncc(Cl)cc2F)CCO1 (stereo unspecified),68.72%,62.39%
COc1ccccc1NCC(=O)NCc1cnn(C)c1,0.5117%,-
CC(C)(C)c1nnc(CN)s1,13.98%,-
CN(CCCNc1ncc(C(N)=O)cc1Cl)S(C)(=O)=O,-,32.07%
N[C@@H]1CC[C@@H](NS(=O)(=O)N2CCc3ccccc3C2)C1,8.359%,-
CN1CCN(CC(O)CN(C)Cc2ccncc2)CC1 (stereo unspecified),-,4.806%
O=C(c1ccncc1)N1CCC2(CCCCO2)CC1,8.071%,23.96%
CNC(=O)c1c(C)nn(-c2ccc(F)cc2)c1Cl,-,12.25%
CCc1ccc(CN2CCN(C(=O)N(C)C)CC2)o1,51.82%,60.27%
CCC(NC(=O)CCCc1cn[nH]c1)[C@H]1C[C@H](O)C1 (stereo partly specified),-9.262%,-
COc1cc(NC(=O)Cn2ccnc2)c(OC)cc1Cl,-,8.618%
OCC1CCN(Cc2ccccc2)C1 (stereo unspecified),5.21%,-
CC(C)(C)Oc1ccc(C(=O)N2CC(CO)C2)cn1,-,-12.45%
CN(C)c1ccc(C(=O)NCCc2c[nH]cn2)cn1,-2.757%,-
O=C(COc1ccc(F)cc1)NC1CC1,36.14%,44.52%
COCCNC(=O)CN1CCCC(C)C1 (stereo unspecified),-,7.009%
CC(N)c1nc2c(s1)CCC2 (stereo unspecified),-,-8.962%
CCn1ncnc1CN1CCC(O)(CO)CC1,-6.641%,-
O=C(CCN1CCN(c2ccccn2)CC1)NC1CC1,56.41%,10.89%
COC(=O)c1ccc2[nH]c(CN)nc2c1,-,15.53%
OCc1cc(F)cc(N2CCOCC2)c1,-1.378%,-
Cc1c(C(=O)Nc2ccc(F)c(C(N)=O)c2)cnn1C,6.233%,-
COCCN1CCN(CC(=O)NCC(F)(F)F)CC1C (stereo unspecified),-,-27.66%
CCCc1noc(COc2ccccc2C(N)=O)n1,-,40.89%
Cc1noc(OCC(=O)N(C)Cc2ccco2)n1,-,-9.07%
Cc1c[nH]c(CN(C)c2cc(C3CC(O)C3)ncn2)n1 (stereo unspecified),-,13.5%
COC(=O)[C@@H](C)NC1CCN(c2ccccn2)CC1,-,15.68%
COc1cccc(C(=O)N2CCC(O)(C(F)(F)F)C2)c1 (stereo unspecified),26.83%,-
CC(CNC(=O)NCc1cc[nH]n1)N1CCCC1 (stereo unspecified),-0.5512%,-
NC(=O)CCN1CCCC1c1ccsc1 (stereo unspecified),-,18.63%
CN(C)CCC1CN(C(=O)C2CCCCC2)CCO1 (stereo unspecified),-,2.056%
COCCN(C)CCC(N)c1ccccc1 (stereo unspecified),-,15.76%
CN(Cc1nnc2n1CCC2)C(=O)c1ccccc1,-9.488%,-
CC(=O)N1CCC(Cc2ccc(C(N)=O)cc2)CC1,4.989%,-
N[C@H]1CCO[C@@H]1c1cccnc1,-,-1.356%
Cc1cc(O)nc(C2CC2)n1,0.2558%,-
C1CC(OCCN2CCOCC2)CN1 (stereo unspecified),-,5.242%
COc1cc(C)c([S+](C)[O-])cc1OC (stereo unspecified),2.85%,-
CS(=O)(=O)N1CCC(COCc2ccccc2)C1 (stereo unspecified),15.67%,67.25%
CCc1ccc(CN2CCN3CCN(C)CC3C2)o1 (stereo unspecified),-6.281%,6.02%
CNC(=O)CN1CCNCC1,-14.37%,-
CCOc1ccccc1NC(=O)N1CCN(C)CC1,20.92%,-
NCc1cccc(C(=O)N2CCOCC2)c1,-11.55%,-
Cc1ccc(NC(=O)N2CCC(O)C2)cc1OC(F)F (stereo unspecified),18.81%,32.68%
CCNC(=O)NCCN(C)C,-,18.33%
N#CCOC(=O)CC(NC(N)=O)c1ccccc1 (stereo unspecified),-,6.262%
CC(C)CCN1CCC(CNC(=O)NCCO)CC1,-2.201%,-
COc1ccc(-n2c(CCN)n[nH]c2=O)cc1OC,-,6.859%
CC1=Nc2ccccc2CN1,-5.81%,-
N#Cc1ccc(Sc2nnc(N3CCCC3)s2)nc1,-23.69%,-
CS(=O)(=O)c1cccc(NC(=O)c2cnccn2)c1,-11.58%,-
CCO[C@H]1CN(C(=O)CCn2ccnc2C)C[C@@H]1O,13.87%,-
NS(=O)(=O)c1ccc(NC(=O)Cn2ccnc2)cc1,71.74%,-11.14%
c1ccc(N2CCCN3CCCC3C2)nc1 (stereo unspecified),9.653%,-
C[C@@H](N)C(=O)N1CCC(OCCCc2ccccc2)C1 (stereo partly specified),44.18%,43.84%
CCO[C@H]1CN(CCn2cc(Cl)cn2)C[C@@H]1O,-,20.54%
COc1ncccc1C(=O)NCCc1cccs1,62.18%,71.19%
O=C(NCCn1cccc1)c1[nH]nc2c1CCCC2,53.15%,42.9%
C=Cc1cccc(CN(C)CCC(=O)NC)c1,-0.6139%,-
OCCc1cn2c(n1)CCCC2,-5.716%,-
COc1ccc(NC(=O)NC2CCNC2=O)c(C)c1 (stereo unspecified),-0.5742%,-
CCOCCNC(=O)N1CCN(S(C)(=O)=O)CC1,-,2.966%
CN1CN(c2cccc(F)c2C#N)CC1=O,-3.434%,-
CN(Cc1ccco1)S(=O)(=O)c1cnn(C)c1,-,18.58%
COC(CN)CC(N)=O (stereo unspecified),-1.831%,-
N#CCOC(=O)c1ccc(-n2cnnn2)cc1,-,0.06781%
CC1Cc2ccccc2N1CCN (stereo unspecified),74.04%,77.97%
COCC(=O)N1CCCN(Cc2cncn2C)CC1,-17.46%,-
COc1cc(F)ccc1C(C)N (stereo unspecified),-,7.625%
CCCS(=O)(=O)N(C)Cc1cccc(OCC)n1,46.82%,61.91%
CCCNC(=O)C[S+]([O-])Cc1cccc(Cl)c1 (stereo unspecified),25.83%,44.45%
Cc1ccnc(NCCn2ccnc2-c2ncc[nH]2)c1,-,31.21%

Repeated from the top, 8 entries:

Compound	Mtb cholesterol medium	Mtb glucose medium
Nc1nnc(SCc2ccccc2F)s1	54.84%	61.69%
COc1ccc(Br)cc1CNCC1CCS(=O)(=O)C1 (stereo unspecified)	2.366%	-
CC(C#N)CNC(=O)Cc1ccccc1O (stereo unspecified)	-3.71%	-
NC(CCO)C1CCCCC1 (stereo unspecified)	-	-6.444%
OCC1CN(c2ncc(Cl)cc2F)CCO1 (stereo unspecified)	68.72%	62.39%
COc1ccccc1NCC(=O)NCc1cnn(C)c1	0.5117%	-
CC(C)(C)c1nnc(CN)s1	13.98%	-
CN(CCCNc1ncc(C(N)=O)cc1Cl)S(C)(=O)=O	-	32.07%